A mixed list of measured activities; the numbers were collected in NIAID ChemDB.

Common to all: tests on isolated targets

Lines come from different laboratories, so protocols vary.

smiles	dose	endpoint	target	read by	species	strain or isolate	value
Cn1cccc1-c1nc2cc(C(=O)NC3(C(=O)Nc4ccc(/C=C/C(=O)O)cc4)CCCC3)ccc2n1C1CCCCC1		IC50	NS5B polymerase		Hepatitis C virus		<0.5 µM
CC(C)C[C@@]1(C(=O)O)C[C@H](c2nnco2)[C@H](c2nccs2)N1C(=O)c1ccc(C(C)(C)C)cc1		IC50	RNA-dependent RNA polymerase		Hepatitis C virus		<50 µM
CCN(CCO)c1cc(C(=O)Nc2ccc3cn[nH]c3c2)c(F)cc1F	0.01 µg/mL	inhibition	Reverse transcriptase		Hepatitis B virus		42%
COc1nc(NCCCN2CCOCC2)nc(Nc2ccc3[nH]ncc3c2)n1		IC50	DNA polymerase		Hepatitis B virus		0.1–1 µg/mL
C[C@@H](NC(=O)c1ccc2c(c1)nc(-c1ccoc1)n2C1CCCCC1)C(=O)Nc1cccc(-c2ccc(C(=O)O)o2)c1		IC50	NS5B polymerase		Hepatitis C virus		<0.5 µM
CC(C)C[C@@]1(C(=O)O)C[C@@H](c2nc(Br)ns2)[C@H](c2nccs2)N1C(=O)c1ccc(C(C)(C)C)cc1		IC50	RNA-dependent RNA polymerase		Hepatitis C virus		<50 µM
O=C(N[C@@H](Cc1c[nH]c2ccccc12)C(=O)O)c1cc2nc(-c3cccc(F)c3)c(C3CCCCC3)c(=O)n2[nH]1		IC50	RNA-dependent RNA polymerase		Hepatitis C virus		<1 µM
O=C(Nc1ccc2cn[nH]c2c1)c1cc(NCCc2ccccn2)c(F)cc1F		IC50	Reverse transcriptase		Hepatitis B virus		0.1–1 µg/mL
CC[C@@H](C=O)NC(=O)[C@@H]1C[C@@H](OCc2ccccc2)CN1C(=O)[C@@H](NC(=O)[C@@H](NC(=O)c1cnccn1)[C@H](C)OCc1ccccc1)C(C)C		Ki	NS3 protease		Hepatitis C virus		1–100 µM
CC(C)C[C@@]1(C(=O)O)C[C@@H](c2nccs2)[C@H](c2nccs2)N1C(=O)c1ccc(C(C)(C)C)cc1		IC50	RNA-dependent RNA polymerase		Hepatitis C virus		<50 µM
CC(=O)N[C@@H](CC(=O)O)C(=O)N[C@@H](C(=O)N[C@H](C(=O)N[C@@H](CCC(=O)O)C(=O)N[C@@H](CC1CCCCC1)C(=O)N[C@@H](CS)C(=O)C(=O)O)C(c1ccccc1)c1ccccc1)C(C)C		Ki	NS3/NS4A serine protease		Hepatitis C virus		22 µM
COc1nc(NCCc2c[nH]c3ccccc23)nc(Nc2ccc3cn[nH]c3c2)n1	1 µg/mL	inhibition	Nonstructural protein 5B		Hepatitis C virus		39%
CNC(=O)c1c(-c2ccc(F)cc2)oc2cc(N3CCOCC3)c(OCc3cnc[nH]3)cc12		IC50	Nonstructural protein 5B		Hepatitis C virus		≤0.5 µM
O=C(N[C@@H](Cc1cc2ccccc2[nH]1)C(=O)O)c1cc2nc(OCc3ccccc3)c(CCC3CCCCC3)c(=O)n2[nH]1		IC50	RNA-dependent RNA polymerase		Hepatitis C virus		1–10 µM
COc1ccc(C(=O)O)cc1NC(=O)C1(NC(=O)c2ccc3c(c2)nc(-c2ccoc2)n3C2CCCCC2)CCCC1		IC50	NS5B polymerase		Hepatitis C virus		0.5–5 µM
CCOC(=O)N1CCN(c2nc(Nc3ccc4[nH]ncc4c3)nc(OC)n2)CC1	0.01 µg/mL	inhibition	DNA polymerase		Hepatitis B virus		2%
CC(=O)N[C@@H](CC(=O)O)C(=O)N[C@@H](CC1CCCCC1)C(=O)N[C@H](C(=O)N[C@@H](CCC(=O)O)C(=O)N[C@@H](CC1CCCCC1)C(=O)N[C@@H](CS)C(=O)C(=O)O)C(c1ccccc1)c1ccccc1		Ki	NS3/NS4A serine protease		Hepatitis C virus		109 µM
COc1nc(NCCN2CCOCC2)nc(Nc2ccc3cn[nH]c3c2)n1	10 µg/mL	inhibition	Nonstructural protein 5B		Hepatitis C virus		46%
CC[C@@H](C=O)NC(=O)[C@@H]1C[C@@H](OCc2ccccc2)CN1C(=O)[C@@H](NC(=O)[C@@H](NC(=O)OCc1ccccc1)C(C)C)C(C)C		Ki	NS3 protease		Hepatitis C virus		1–100 µM
CC(=O)N[C@@H](CC(=O)O)C(=O)N[C@H](CC1CCCCC1)C(=O)N[C@H](C(=O)N[C@@H](CCC(=O)O)C(=O)N[C@@H](CC1CCCCC1)C(=O)N[C@@H](CS)C(=O)C(=O)O)C(c1ccccc1)c1ccccc1		Ki	NS3/NS4A serine protease		Hepatitis C virus		244 µM
CC(C)CNc1cc(C(=O)Nc2ccc3cn[nH]c3c2)c(F)cc1F		IC50	Reverse transcriptase		Hepatitis B virus		>1 µg/mL
CC(=O)N[C@@H](CC(=O)O)C(=O)N[C@H](CC(C(=O)O)C(=O)O)C(=O)N[C@H](C(=O)N[C@@H](CCC(=O)O)C(=O)N[C@@H](CC1CCCCC1)C(=O)N[C@@H](CC(F)F)C(=O)C(=O)O)C(c1ccccc1)c1ccccc1		Ki	NS3/NS4A serine protease		Hepatitis C virus		0.00002 µM
CCCCc1ccc(-c2cc(NS(=O)(=O)c3ccccc3C)c(C(=O)O)s2)cc1		IC50	NS3 ATPase		Hepatitis C virus		<5 µM
CNC(=O)c1c(-c2ccc(F)cc2)oc2cc(N3CCSCC3)c(OC(C)C)cc12		IC50	Nonstructural protein 5B		Hepatitis C virus		≤0.5 µM
COc1cc(C(=O)N2[C@@H](c3cccs3)[C@H](c3nc(C)no3)C[C@@]2(CC(C)C)C(=O)O)ccc1C(C)(C)C		IC50	RNA-dependent RNA polymerase		Hepatitis C virus		<50 µM
CNC(=O)c1c(-c2ccc(F)cc2)oc2cc(CO)c(OC(C)C)cc12		IC50	Nonstructural protein 5B		Hepatitis C virus		≤0.5 µM
CC[C@@H](C=O)NC(=O)[C@@H]1C[C@@H](OCc2ccc(OCc3ccccc3)c(OCc3ccccc3)c2)CN1C(=O)[C@@H](NC(=O)[C@@H](NC(=O)c1cnccn1)C(C)C)C(C)C		Ki	NS3 protease		Hepatitis C virus		1–100 µM
O=C(Nc1ccc2cn[nH]c2c1)c1cc(NCCO)c(F)cc1F	0.1 µg/mL	inhibition	Reverse transcriptase		Hepatitis B virus		40%
O=C(O)c1cc2nc(-c3ccc(Cl)cc3Cl)cc(-c3ccc(-c4ccccc4)cc3)n2n1		IC50	RNA-dependent RNA polymerase		Hepatitis C virus		1–10 µM
C[C@H](NC(=O)c1ccc2c(c1)nc(-c1ccoc1)n2C1CCCCC1)C(=O)Nc1ccc(/C=C/C(=O)O)cc1		IC50	NS5B polymerase		Hepatitis C virus		<0.5 µM
CC(C)C[C@@]1(C(=O)O)C[C@H](c2ncno2)[C@H](c2nccs2)N1C(=O)c1ccc(C(C)(C)C)cc1		IC50	RNA-dependent RNA polymerase		Hepatitis C virus		<50 µM
O=C(O)c1c[nH]n2c(=O)c(CCCc3ccccc3)c(-c3ccc(OCc4ccccc4)cc3)nc12		IC50	RNA-dependent RNA polymerase		Hepatitis C virus		1–10 µM
O=C(Nc1ccc2[nH]ncc2c1)c1cc(NCCN2CCOCC2)c(F)cc1F	0.1 µg/mL	inhibition	Reverse transcriptase		Hepatitis B virus		55%
COC(=O)c1cc2nc(-c3ccc(OC)cc3)c(-c3ccc(OC)cc3)c(=O)n2[nH]1		IC50	RNA-dependent RNA polymerase		Hepatitis C virus		>10 µM
CNC(=O)CN1CCN(c2nc(Nc3ccc4cn[nH]c4c3)nc(OC)n2)CC1	0.1 µg/mL	inhibition	Nonstructural protein 5B		Hepatitis C virus		2%
O=C(/C=C/c1ccc(O)c(O)c1)O[C@H]1[C@H](O)C[C@](O)(C(=O)O)C[C@H]1OC(=O)/C=C/c1ccc(O)c(O)c1	50 µg/mL	inhibition	HBeAg	ELISA	Hepatitis B virus	HepG 2.2.15	15.02%
COc1nc(Nc2ccc3[nH]ncc3c2)nc(NN2CCN(C)CC2)n1		IC50	DNA polymerase		Hepatitis B virus		>1 µg/mL
Cc1noc([C@@H]2C[C@@](CC(C)C)(C(=O)O)N(C(=O)c3ccc(C(C)(C)C)c(Cl)c3)[C@H]2c2nccs2)n1		IC50	RNA-dependent RNA polymerase		Hepatitis C virus		<50 µM
Cc1csc(C(=O)N(C)c2cc(-c3ccccc3)sc2C(=O)O)c1		IC50	NS3 ATPase		Hepatitis C virus		5–20 µM
C[C@@H](NC(=O)c1ccc2c(c1)nc(-c1ccccn1)n2C1CCCCC1)C(=O)Nc1ccc(/C=C/C(=O)O)cc1		IC50	NS5B polymerase		Hepatitis C virus		<0.5 µM
COc1nc(NCCN2CCOCC2)nc(Nc2ccc3[nH]ncc3c2)n1	0.1 µg/mL	inhibition	Nonstructural protein 5B		Hepatitis C virus		0%
CC(C)N(C(=O)c1ccc(Cl)nc1Cl)c1cc(-c2ccccc2)sc1C(=O)O		IC50	NS3 ATPase		Hepatitis C virus		5–20 µM
O=C(O)c1cc2nc(-c3ccc(Cl)cc3Cl)cc(-c3ccc(Cl)cc3)n2n1		IC50	RNA-dependent RNA polymerase		Hepatitis C virus		>10 µM
CC(C)(C)c1ccc(C(=O)N2[C@@H](c3nccs3)[C@@H](c3nnco3)C[C@@]2(Cc2ccccc2)C(=O)O)cc1		IC50	RNA-dependent RNA polymerase		Hepatitis C virus		<50 µM
CNC(=O)c1c(-c2ccc(F)cc2)oc2cc(N(C)S(C)(=O)=O)c(OCc3cccc(C#N)c3)cc12		IC50	Nonstructural protein 5B		Hepatitis C virus		≤0.5 µM
O=C(O)c1sc(-c2ccccc2)cc1N(C(=O)c1ccc(Cl)cc1Cl)C1CCNC1		IC50	NS3 ATPase		Hepatitis C virus		5–20 µM
CC(=O)N[C@@H](CC(=O)O)C(=O)N[C@H](CC(C(=O)O)C(=O)O)C(=O)N[C@H](C(=O)N[C@@H](CCC(=O)O)C(=O)N[C@@H](Cc1ccccc1)C(=O)N[C@@H](CS)C(=O)C(=O)O)C(c1ccccc1)c1ccccc1		Ki	NS3/NS4A serine protease		Hepatitis C virus		0.00004 µM
COC(=O)c1ccc(-c2ccc(NC(=O)C3(NC(=O)c4ccc5c(c4)nc(-c4ccoc4)n5C4CCCCC4)CCCC3)cc2)o1		IC50	NS5B polymerase		Hepatitis C virus		0.5–5 µM
CC[C@@H](C=O)NC(=O)[C@H](CC(C)C)NC(=O)[C@@H](NC(=O)[C@@H](NC(=O)CCN1CCOCC1)C(C)C)C(C)C		Ki	NS3 protease		Hepatitis C virus		1–100 µM
O=C(O)c1cc2nccc(-c3ccccc3-c3ccccc3F)n2n1		IC50	RNA-dependent RNA polymerase		Hepatitis C virus		>10 µM
CC(=O)N(Cc1cccc(C)c1)c1cc(-c2ccccc2)sc1C(=O)O		IC50	NS3 ATPase		Hepatitis C virus		5–20 µM
C=C1[C@H](COP(=O)(O)OP(=O)(O)OP(=O)(O)O)[C@@H](O)C[C@@H]1n1cnc2c(=O)[nH]c(N)nc21		IC50	DNA polymerase		Hepatitis B virus	Polymerase mutant V553I	0.00067 µM

a–b is a range or a potency band. ICn: concentration for n% inhibition. An empty or dashed field is not shown. Inhibition is in % at the dose shown (toxicity tests: loss of growth or viability).